# In-gel DMS probing of monomeric and dimeric HIV-1 RNA

The measurements come from Ye et al. 2022 (doi:10.1038/s41594-022-00746-2).

The 5' region of HIV-1 NL4-3 RNA (positions 1-437):
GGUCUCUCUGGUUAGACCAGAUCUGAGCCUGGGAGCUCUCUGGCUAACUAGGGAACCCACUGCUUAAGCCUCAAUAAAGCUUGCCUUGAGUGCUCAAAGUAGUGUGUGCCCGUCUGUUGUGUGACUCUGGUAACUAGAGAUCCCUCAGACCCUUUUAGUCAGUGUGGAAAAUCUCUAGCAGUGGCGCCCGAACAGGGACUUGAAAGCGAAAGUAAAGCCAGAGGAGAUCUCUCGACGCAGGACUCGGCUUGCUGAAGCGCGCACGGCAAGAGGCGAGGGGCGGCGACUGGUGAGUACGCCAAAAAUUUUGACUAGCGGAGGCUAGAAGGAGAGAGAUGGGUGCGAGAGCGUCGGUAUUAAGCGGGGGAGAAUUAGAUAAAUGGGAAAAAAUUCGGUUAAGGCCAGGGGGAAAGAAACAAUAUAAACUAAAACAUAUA

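Mutant RNA libraries with 1G, 2G or 3G starts, with or without cap, were folded at 37 °C for 30 min. High salt was 300 mM KCl and 5 mM MgCl2, low salt 40 mM KCl and 0.1 mM MgCl2; monomer and dimer were parted on a native gel. Gel slices were treated with 170 mM dimethyl sulfate for 15 min at 37 °C and read by mutational profiling against an ethanol control.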

Values are winsor-normalised DMS reactivities of A and C; higher means more reactive, usually unpaired. One numbering serves 1G, 2G and 3G. A position is written with its base.

With A418 the assay gave 1G uncapped high-salt monomer 0.58; 1G capped low-salt monomer 0.63; 3G uncapped low-salt dimer 0.50. A419 read 1G uncapped high-salt monomer 0.46; 1G capped low-salt monomer 0.49; 3G uncapped low-salt dimer 0.42. A421 read 1G uncapped high-salt monomer 0.37; 1G capped low-salt monomer 0.38; 3G uncapped low-salt dimer 0.40. A423 read 1G uncapped high-salt monomer 0.39; 1G capped low-salt monomer 0.41; 3G uncapped low-salt dimer 0.44. A424 read 1G uncapped high-salt monomer 0.33; 1G capped low-salt monomer 0.34; 3G uncapped low-salt dimer 0.31. For A425 the result was 1G uncapped high-salt monomer 0.49; 1G capped low-salt monomer 0.52; 3G uncapped low-salt dimer 0.50. C426 read 1G uncapped high-salt monomer 0.73; 1G capped low-salt monomer 0.77; 3G uncapped low-salt dimer 0.45.

For A428 the result was 1G uncapped high-salt monomer 0.11; 1G capped low-salt monomer 0.10; 3G uncapped low-salt dimer 0.14. A429 gave 1G uncapped high-salt monomer 0.69; 1G capped low-salt monomer 0.72; 3G uncapped low-salt dimer 0.84. For A430 the result was 1G uncapped high-salt monomer 0.54; 1G capped low-salt monomer 0.55; 3G uncapped low-salt dimer 0.53. A431 gave 1G uncapped high-salt monomer 0.59; 1G capped low-salt monomer 0.61; 3G uncapped low-salt dimer 0.63. For C432 the result was 1G uncapped high-salt monomer 0.86; 1G capped low-salt monomer 0.93; 3G uncapped low-salt dimer 0.53. A433 read 1G uncapped high-salt monomer 0.71; 1G capped low-salt monomer 0.75; 3G uncapped low-salt dimer 0.60. For A435 the result was 1G uncapped high-salt monomer 0.50; 1G capped low-salt monomer 0.51; 3G uncapped low-salt dimer 0.43.

For A437 the result was 1G uncapped high-salt monomer 0.04; 1G capped low-salt monomer 0.04; 3G uncapped low-salt dimer 0.05.

Extract of 2 entries:

{"position": "A433", "domain": "none", "1G uncapped high-salt monomer": 0.71, "1G capped low-salt monomer": 0.75, "3G uncapped low-salt dimer": 0.60}
{"position": "C432", "domain": "none", "1G uncapped high-salt monomer": 0.86, "1G capped low-salt monomer": 0.93, "3G uncapped low-salt dimer": 0.53}